Results from patent US6627772B2, “Preparation of N-[2-(carboxymethoxy) ethyl]-N-(carboxymethyl) glycine” (The Dow Chemical Company, priority 1999, dated 2003).

Test system: standardized sludge containing municipal waste treatment plant organisms
Assay: ASTM D2667 semi-continuous activated sludge biodegradability test (loss of chelation followed by copper titration)
Settings: for Time for greater than 80% loss of chelation: ASTM D2667, copper titration value, analysis daily; for Inherent biodegradability (result in words): ASTM D2667 semi-continuous activated sludge test

SMILES | Time for greater than 80% loss of chelation [days] | Inherent biodegradability (result in words) | Inherent biodegradability (result in words) (listed as N-[2-(carboxymethoxy)ethyl]-N-(carboxymethyl)glycine)
O=C(O)COCCN(CC(=O)O)CC(=O)O [(IX), N-[2-(carboxymethoxy)ethyl]-N-(carboxymethyl)glycine] | 30 | inherently biodegradable | will biodegrade
O=C(O)CN(CC(=O)O)CC(=O)O [NTA (std.), nitrilotriacetate, reference compound] | 3 |  | 
